Measured values from several laboratories, pooled; numbers as filed in NIAID ChemDB.

Common to all: tests on isolated targets; species: Hepatitis C virus

Blank or dashed fields: not listed here. ICn is the concentration giving n% inhibition. Neighbouring rows are from separate reports. Two numbers with a dash give a range or band.

structure,strain or isolate,target,read by,read-out,result
C=CC(=O)NCC(=O)N1C[C@H](Oc2nccc3ccc(Br)cc23)C[C@H]1C(=O)N[C@]1(C(=O)NS(=O)(=O)C2CC2)C[C@H]1C=C,1b R155K,Nonstructural protein 3/4A,FRET,IC50,0.065 µM
CO[C@@H]1[C@H](O)[C@@H](CO)O[C@H]1n1ccc(N)nc1=O,,NS5B polymerase,,IC50,3.8 µM
CC[C@@H](C=O)NC(=O)[C@@H]1C[C@@H](NC(=O)C2CCCCC2)CN1C(=O)[C@@H](NC(=O)[C@@H](NC(=O)c1cnccn1)C(C)C)C(C)C,,NS3 protease,,Ki,>100 µM
O=C(Nc1cc(Cl)nc(Cl)c1)Nc1cc(-c2ccccc2)sc1C(=O)O,,NS3 ATPase,,IC50,<5 µM
C=C[C@@H]1C[C@]1(NC(=O)[C@@H]1C[C@@H](Oc2cc(-c3ccccc3)nc3cc(OC)ccc23)CN1C(=O)[C@@H](NC(=O)OC(C)(C)C)C(C)(C)C)C(=O)NS(=O)(=O)c1ccc(-c2ccccc2)cc1,BMS,NS3/NS4A protease,,IC50,<0.5 µM
CCC[C@H](NC(=O)[C@H](Cc1ccc2ccccc2c1)NC(=O)[C@H](CCC(=O)O)NC(=O)[C@@H](NC(=O)CCC(=O)O)C1CCCCC1)C(=O)NS(=O)(=O)c1ccccc1,,NS3 protease,,Ki,8.4 µM
O=C(O)c1nc(-c2cccc(NS(=O)(=O)c3cc(Cl)c(Cl)cc3Cl)c2)[nH]c(=O)c1O,,HCV polymerase,,IC50,<100 µM
Cc1cc(S(=O)(=O)N(Cc2cccc(I)c2)c2cc(-c3ccccc3)sc2C(=O)O)c(C)cc1Cl,,NS3 ATPase,,IC50,5–20 µM
CCC[C@H](NC(=O)C1CC(Oc2cc(-c3ccccc3)nc3cc(OC)ccc23)CN1C(=O)[C@@H](NC(=O)OC(C)(C)C)C(C)C)C(=O)NS(=O)(=O)Cc1ccccc1,,NS3 protease,,Ki,0.18 µM
CC(C)(C)OC(=O)N1CCC(N(C(=O)c2ccc(Cl)cc2Cl)c2cc(-c3ccccc3)sc2C(=O)O)C1,,NS3 ATPase,,IC50,<5 µM
CCC[C@H](NC(=O)[C@H](Cc1ccc2ccccc2c1)NC(=O)[C@H](CCC(=O)O)NC(=O)[C@@H](NC(=O)CCC(=O)O)C1CCCCC1)C(=O)O,,NS3 protease,,Ki,46 µM
COc1ccc(CCC2(C3CCCC3)CC(O)=C(Sc3nc4nc(C)cc(C)n4n3)C(=O)O2)cc1,,Nonstructural protein 5B,,IC50,<1 µM
CCC[C@H](NC(=O)C1CC(Oc2cc(-c3ccccc3)nc3cc(OC)ccc23)CN1C(=O)[C@@H](NC(=O)OC(C)(C)C)C(C)C)C(=O)O,,NS3 protease,,Ki,0.76 µM
COc1cc(OC)c(CCC2(C3CCCC3)CC(O)=C(Cl)C(=O)O2)cc1Cl,,Nonstructural protein 5B,,IC50,<1 µM
N#Cc1cccc(NC(=O)Nc2cccc(-c3nc(C(=O)O)c(O)c(=O)[nH]3)c2)c1,,HCV polymerase,,IC50,<100 µM
CCOP(=O)(OCC)[C@H](CC)NC(=O)[C@@H]1C[C@@H](OCc2ccccc2)CN1C(=O)[C@@H](NC(=O)[C@@H](NC(=O)c1cnccn1)C(C)C)C(C)C,,NS3 protease,,Ki,>100 µM
O=C1CC(=O)OC(CCc2ccc(F)c(F)c2)(C2CCCC2)C1,,Nonstructural protein 5B,,IC50,10–50 µM
CC[C@H](NC(=O)[C@@H]1C[C@@H](OCc2ccc(Cl)c(Cl)c2)CN1C(=O)[C@@H](NC(=O)[C@@H](NC(=O)c1cnccn1)C(C)C)C(C)C)P(=O)(Oc1ccccc1)Oc1ccccc1,,NS3 protease,,Ki,<1 µM
N#Cc1ccc(NC(=O)Nc2cccc(-c3nc(C(=O)O)c(O)c(=O)[nH]3)c2)cc1,,HCV polymerase,,IC50,<100 µM
Nc1nc2ccc(S(=O)(=O)c3ccc([N+](=O)[O-])cc3)cc2s1,,Nonstructural protein 3 NTPase/helicase,,IC50,>25 µg/mL
CC(C)N(C(=O)[C@H]1CC[C@H](C)C[C@H]1O)c1cc(-c2ccccc2)sc1C(=O)O,,NS3 ATPase,,IC50,<5 µM
CC[C@H](NC(=O)[C@@H]1C[C@@H](OCc2ccc3ccccc3c2)CN1C(=O)[C@@H](NC(=O)[C@@H](NC(=O)c1cnccn1)C(C)C)C(C)C)P(=O)(Oc1ccccc1)Oc1ccccc1,,NS3 protease,,Ki,1–100 µM
Cn1c(COc2ccc(CCC3(C4CCCC4)CC(O)=CC(=O)O3)cc2)nc2ccccc21,,Nonstructural protein 5B,,IC50,10–50 µM
CN1C(=O)[C@]23CC4=CC=C[C@H](O)[C@H]4N2C(=O)[C@@]1(CO)SS3,,NS5B polymerase,,Ki,230 µM
O=C(O)c1nc(-c2cccc(OCc3ccccc3)c2)[nH]c(=O)c1O,,HCV polymerase,,IC50,<100 µM
Cc1ccc2oc(-c3ccc(N)cc3)nc2c1,,Nonstructural protein 3 NTPase/helicase,,IC50,>25 µg/mL
O=C(Nc1cccc(-c2nc(C(=O)O)c(O)c(=O)[nH]2)c1)NC1CC1c1ccccc1,,HCV polymerase,,IC50,<100 µM
CCCC1CCC(C(=O)N(c2cc(-c3ccccc3)sc2C(=O)O)C(C)C)CC1,,NS3 ATPase,,IC50,<5 µM
CC(C)NC(=O)Nc1cccc(-c2nc(C(=O)O)c(O)c(=O)[nH]2)c1,,HCV polymerase,,IC50,<100 µM
CC1CCC(C(=O)N(c2cc(-c3ccccc3)sc2C(=O)O)C2COC(C)(C)OC2)CC1,,NS3 ATPase,,IC50,<5 µM
C[C@@]1(O)[C@H](O)[C@@H](CO)O[C@H]1C1C=Nc2c(N)ncn[n+]21,GT1b,NS5B TP,,IC50,2.1 µM
Cc1c(S(=O)(=O)Nc2cc(-c3ccccc3)sc2C(=O)O)sc2ccc(Cl)cc12,,NS3 ATPase,,IC50,<5 µM
CC(NC(=O)Nc1cccc(-c2nc(C(=O)O)c(O)c(=O)[nH]2)c1)c1ccc2c(c1)OCCO2,,HCV polymerase,,IC50,<100 µM
O=C(CCCCC(=O)Nc1ccc(-c2nc3ccccc3s2)cc1)Nc1ccc(-c2nc3ccccc3s2)cc1,,Nonstructural protein 3 NTPase/helicase,,IC50,>25 µg/mL
OC[C@H]1O[C@@H](n2cnc3cc(Br)c(Br)cc32)[C@H](O)[C@@H]1O,,Nonstructural protein 3 NTPase/helicase,,IC50,>500 µM
CC(C)(C)OC(=O)NC(C(=O)Nc1ccsc1-c1nc(C(=O)O)c(O)c(=O)[nH]1)c1cccc2ccccc12,,HCV polymerase,,IC50,<25 µM
C=CCN(C(=O)C1CCC1)c1cc(-c2ccccc2)sc1C(=O)O,,NS3 ATPase,,IC50,>20 µM
C=C[C@@H]1C[C@]1(NC(=O)[C@@H]1C[C@@H](Oc2cc(-c3ccccc3)nc3cc(OC)ccc23)CN1C(=O)[C@@H](NC(=O)CF)C(C)(C)C)C(=O)NS(=O)(=O)C1CC1,BMS,NS3/NS4A protease,,IC50,<0.05 µM
Cc1ccccc1S(=O)(=O)Nc1cc(-c2cc(F)cc(F)c2)sc1C(=O)O,,NS3 ATPase,,IC50,<5 µM
O=C(CCC(=O)Nc1nc2ccccc2[nH]1)Nc1nc2ccccc2[nH]1,,Nonstructural protein 3 NTPase/helicase,,IC50,>25 µg/mL
Brc1c(Br)c(Br)c2n[nH]nc2c1Br,,Nonstructural protein 3 NTPase/helicase,,IC50,60 µM
C=C[C@@H]1C[C@]1(NC(=O)[C@H]1C[C@@H](Oc2cc(-c3ccccc3)nc3cc(OC)ccc23)CN1C(=O)[C@@H](NC(=O)OC(C)(C)C)C(C)(C)C)C(=O)NS(C)(=O)=O,BMS,NS3/NS4A protease,,IC50,<0.05 µM
Cc1cc(SC2=C(O)CC(CCc3ccc(O)cc3)(C3CCCC3)OC2=O)c(C(C)(C)C)cc1OCCO,,Nonstructural protein 5B,,IC50,1–10 µM
O=C(NCCCCNC(=O)Nc1ccc(-c2nc3ccccc3[nH]2)cc1)Nc1ccc(-c2nc3ccccc3[nH]2)cc1,,Nonstructural protein 3 NTPase/helicase,,IC50,>25 µg/mL
O=C1CC(=O)OC(CCc2ccc(C(=O)N3CC[C@H](O)C3)cc2)(C2CCCC2)C1,,Nonstructural protein 5B,,IC50,10–50 µM
C=CC1CC1(NC(=O)C1CC(Oc2cc(-c3ccccc3)nc3cc(OC)ccc23)CN1C(=O)[C@@H](NC(=O)OC(C)(C)C)C(C)C)C(=O)NS(=O)(=O)c1ccccc1,,NS3 protease,,Ki,0.00076 µM
O=C(CCC(=O)Nc1ccc(-c2nc3ccccc3[nH]2)cc1)Nc1ccc(-c2nc3ccccc3[nH]2)cc1,,Nonstructural protein 3 NTPase/helicase,,IC50,>25 µg/mL

Again, the opening 4 rows:

structure	strain or isolate	target	read by	read-out	result
C=CC(=O)NCC(=O)N1C[C@H](Oc2nccc3ccc(Br)cc23)C[C@H]1C(=O)N[C@]1(C(=O)NS(=O)(=O)C2CC2)C[C@H]1C=C	1b R155K	Nonstructural protein 3/4A	FRET	IC50	0.065 µM
CO[C@@H]1[C@H](O)[C@@H](CO)O[C@H]1n1ccc(N)nc1=O		NS5B polymerase		IC50	3.8 µM
CC[C@@H](C=O)NC(=O)[C@@H]1C[C@@H](NC(=O)C2CCCCC2)CN1C(=O)[C@@H](NC(=O)[C@@H](NC(=O)c1cnccn1)C(C)C)C(C)C		NS3 protease		Ki	>100 µM
O=C(Nc1cc(Cl)nc(Cl)c1)Nc1cc(-c2ccccc2)sc1C(=O)O		NS3 ATPase		IC50	<5 µM